Source: US10889616B2 (priority 2014, dated 2021)

Assay: general procedure: solution-phase peptide synthesis; HBTU/DIEA; isobutyl chloroformate/DIPEA
Conditions: conjugation step

Boc-TAM479
conjugation yield: 76%
